These results are taken from patent US7345026B2, “Hybrid or chimeric polynucleotides, proteins, and compositions comprising hepatitis B virus sequences” (Institut Pasteur, priority 1999, dated 2008).

Common to all, as to design: species or system HHD mice
Experiment [1] deals with HHD-transfected RMA-S target cells loaded with relevant peptides. As to conditions: mouse, in vivo.
Experiment [2] concerns peptide-loaded HHD-transfected RMA-S cells. As to conditions: mouse, in vivo.
Experiment [3] relates to HHD-transfected RMA-S cells loaded with relevant peptides. Conditions: in vivo.

“Also recorded” adds a separate entry of the source.

On to AAGIGILTV [Melan-A/MART-1.27], for which, in experiment [1], the “CTL response when co-injected with helper peptide (in words)” value was “strong CTL-inducers when associated with a helper peptide” and the lysis in % entry is reported as “(10, 19, 20, 30) %”. The “CTL response against the epitope after polyepitope immunization (in words)” value in experiment [2] was “did not elicit CTL responses; also recorded: Significant responses”. In addition, the “lysis in % (maximal lysis observed for each responder mouse)” value in experiment [3] (sc) was “(15, 19) %”. Also, the “CTL inducer hierarchy (in words)” value in experiment [3] (mouse) is recorded as “weak”.
